According to patent US20030220338A1, “Fungal efflux pump inhibitors” (priority 2001, published 2003):

Experiments:
[1] = tested on: Candida albicans YEM15 (over-expressing the CDR1 and CDR2 pumps); assay: Checkerboard / broth microdilution assay, potentiation of fluconazole vs. C. albicans; settings: for MIC: Candida albicans, 48 h; for MPC8 = concentration of efflux pump inhibitor necessary to reduce the fluconazole MIC 8-fold: in combination with fluconazole, strain YEM15
[2] = tested on: C. glabrata YEM19 (over-expressing the CgCDR1 and CgCDR2 pumps); assay: Checkerboard / broth microdilution assay, potentiation of fluconazole vs. C. glabrata; settings: for MIC: Nakaseomyces glabratus, 48 h; for MPC8: in combination with fluconazole, strain YEM19

| Compound | MIC [1] [µg/mL] | MPC8 = concentration of efflux pump inhibitor necessary to reduce the fluconazole MIC 8-fold [1] [µg/mL] | MIC [2] [µg/mL] | MPC8 [2] [µg/mL] |
| --- | --- | --- | --- | --- |
| COc1ccc(N(C(=O)Nc2ccc(F)cc2)C(C)c2nc3cc(F)c(F)cc3c(=O)n2N2CCN(C(=O)[C@@H]3CCCN3)CC2)c(OC)c1 (some centres unmarked) [Compound 158] | > 32 | 16 | > 32 | 2 |
| COc1ccc(N(C(=O)Nc2ccc(F)cc2)C(C)c2nc3ccccc3c(=O)n2N2CCN(CC(N)=O)CC2)c(OC)c1 (centres unmarked) [Compound 111] | > 32 | 1 | > 32 | 4 |
| COc1ccc(N(C(=O)Nc2ccc(F)cc2)C(C)c2nc3ccccc3c(=O)n2N2CCN(C(=O)CNC(=O)OC(C)(C)C)CC2)c(OC)c1 (centres unmarked) [Compound 55] | > 32 | 4 | > 32 | 1 |
| CCOC(=O)CCCN1CCN(n2c(C(C)N(C(=O)Nc3ccc(F)cc3)c3ccc(OC)cc3OC)nc3ccccc3c2=O)CC1 (centres unmarked) [Compound 51] | > 32 | 1 | > 32 | 0.25 |
| COc1ccc(N(C(=O)Nc2ccc(F)cc2)C(C)c2nc3ccccc3c(=O)n2N2CCN(C(=O)NCCO)CC2)c(OC)n1 (centres unmarked) [Compound 134] | > 32 | 32 | > 32 | 16 |
| COc1ccc(C(C)=O)cc1N(C(=O)Nc1ccc(F)cc1)C(C)c1nc2ccccc2c(=O)n1N1CCN(C(=O)C2CC2)CC1 (centres unmarked) [Compound 207] | > 32 | 16 | > 32 | 8 |
| COc1ccc(N(C(=O)Nc2ccc(F)cc2)C(C)c2nc3ccccc3c(=O)n2N2CCN(C(=O)OCCN3CCN(C)CC3)CC2)c(OC)c1 (centres unmarked) [Compound 102] | > 32 | 16 | > 32 | 0.5 |
| COc1ccc(N(C(=O)Nc2ccc(F)cc2)C(C)c2nc3ccccc3c(=O)n2N2CCN(C(=O)[C@H](C)NC(=O)OC(C)(C)C)CC2)c(OC)c1 (some centres unmarked) [Compound 164] | > 32 | 2 | > 32 | 1 |
| CCNC(=O)N1CCN(n2c(C(C)N(C(=O)Nc3ccc(F)cc3)c3ccc(OC)cc3OC)nc3ccccc3c2=O)CC1 (centres unmarked) [Compound 49] | > 32 | 1 | > 32 | 1 |
| COc1ccc(N(C(=O)Nc2ccc(F)cc2)C(C)c2nc3cc(F)ccc3c(=O)n2N2CCN(C(=O)Cc3c[nH]cn3)CC2)c(OC)c1 (centres unmarked) [Compound 161] | > 32 | 32 | > 32 | 4 |
| COc1ccc(N(C(=O)Nc2ccc(F)cc2)C(C)c2nc3ccccc3c(=O)n2N2CCN(C(=O)OCCN3CCC(O)C3)CC2)c(OC)c1 (centres unmarked) [Compound 99] | > 32 | 16 | > 32 | 1 |
| COc1ccc(N(C(=O)Nc2cccc(Cl)c2)C(C)c2nc3ccccc3c(=O)n2N2CCNCC2)c(OC)c1 (centres unmarked) [Compound 123] | > 32 | 16 | > 32 | 32 |
| COc1ccc(N(C(=O)Nc2ccc(F)cn2)C(C)c2nc3ccccc3c(=O)n2N2CCN(C(=O)CN3CCOCC3)CC2)c(OC)c1 (centres unmarked) [Compound 201] | > 32 | 4 | > 32 | 0.5 |
| COc1ccc(N(C(=O)Nc2ccc(F)cc2)C(C)c2nc3ccccc3c(=O)n2N2CCN(C(=O)OCCSc3nccn3C)CC2)c(OC)c1 (centres unmarked) [Compound 107] | > 32 | 2 | > 32 | 0.25 |
| COc1ccc(N(C(=O)Nc2ccc(F)cc2)C(C)c2nc3ccc(F)cc3c(=O)n2N2CCN(CC(=O)N3CCOCC3)CC2)c(OC)c1 (centres unmarked) [Compound 122] | > 32 | 0.125 | 32 | 0.5 |
| CC(c1nc2ccccc2c(=O)n1N1CCN(C)CC1)N(C(=O)Nc1ccc(F)cc1)c1ccc(F)cc1F (centres unmarked) [Compound 62] | > 32 | 8 | > 32 | 32 |
| COc1ccc(N(C(=O)Nc2ccc(F)cc2)C(C)c2nc3ccc(F)cc3c(=O)n2N2CCN(C(=O)OC(C)(C)C)CC2)c(OC)c1 (centres unmarked) [Compound 93] | > 32 | 4 | > 32 | 1 |
